Key:
Assay in all cases: peptide scanning ELISA, peptide coated, P^His detected with anti-His antibody (FIG. 3)
[1] = molecular target: peptide N4 (respiratory syncytial virus, A2 strain)
[2] = molecular target: peptide N17 (respiratory syncytial virus, A2 strain)
[3] = molecular target: peptide N8 (respiratory syncytial virus, A2 strain)
[4] = molecular target: peptide N11 (respiratory syncytial virus, A2 strain)

Measured: OD405

P^His (recombinant RSV A2 phosphoprotein (P) with a Histidine tag at its amino terminus, expressed from pETP in E. coli) (a stretch of the chain, sequence left out)
> 0.2 OD405: all assays above
